Laboratory results: PubChem BioAssay AID504761 (Drosophila RNAi Screening Center, 2011)
The deposit covers about 22,000 reagents; below is a random part of those with a known target gene and a result. In the full data, 116 (0.52%) got an active call. 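Calls depend on retest data that are not deposited; infection was ranked per plate without normalising between plates; the unit of the infection score is not given.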 Raw values are not corrected between plates. Unmarked entries are inactive. Reagents against one gene are numbered here. Names joined by + are all predicted targets of the reagent. Not given: the amount of reagent, the time to read-out.

- Screen: 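Genome-wide fly cell screen for genes dengue virus requires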 (primary screen)
- Cell system: D.Mel-2 cells from Drosophila
- Reagents: long dsRNA against Drosophila genes
- Treatment: infection with dengue virus type 2; dose and infection time not stated
- Read-out: 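Per well on two replicate plates, imaging gave the percent of cells positive for viral envelope protein, ranked by infection, and a nuclear count of cells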
- Scale: infection score: higher = more virus-infected cells; cell count: higher = more cells in the well
- Active means: 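Very low infection ranking in both replicate wells (chance probability at most 0.065), then a retest showing infection dropped 1.5-fold or more at p below 0.05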
- Calls: active = confirmed: knock-down lowers infection; inactive = not picked or not confirmed

| gene | reagent | infection score, replicate 1 | infection score, replicate 2 | cell count, replicate 1 | cell count, replicate 2 |
| --- | --- | --- | --- | --- | --- |
| CG31275 | 1 | 3.31 | 5.15 | 6618 | 6655 |
| CG6414 | 1 | 1.01 | 6.59 | 6609 | 5633 |
| CG11286 | 1 | 7.18 | 8.02 | 6542 | 6446 |
| CG12128 + CG1407 | 1 | 19.4 | 17.5 | 5867 | 6123 |
| mRpL49 (mitochondrial ribosomal protein L49) | 1 | 5.95 | 8.82 | 2049 | 896 |
| RasGAP1 (Ras GTPase activating protein 1) | 1 | 0.81 | 2.2 | 5464 | 5421 |
| Naa80 (N(alpha)-acetyltransferase 80) | 1 | 1.94 | 10.3 | 6918 | 6620 |
| Naa80 (N(alpha)-acetyltransferase 80) | 2 | 16.2 | 20.7 | 5757 | 5723 |
| CG3355 | 1 | 2.76 | 3.34 | 6482 | 6882 |
| CapaR (Capability receptor) | 1 | 1.87 | 1.53 | 6774 | 6551 |
| mRpL23 (mitochondrial ribosomal protein L23) | 1 | 8.75 | 14.9 | 5202 | 5236 |
| CG9717 | 1 | – | 0.27 | 338 | 375 |
| nuf (nuclear fallout) | 1 | 0.78 | 1.28 | 5802 | 6585 |
| nuf (nuclear fallout) | 2 | 1.33 | 11.4 | 5950 | 5655 |
| nuf (nuclear fallout) | 3 | 4.09 | 4.79 | 6108 | 6614 |
| nuf (nuclear fallout) | 4 | 17.6 | 10.3 | 5638 | 5662 |
| HisRS (Histidyl-tRNA synthetase) | 1 | 1.51 | 1.51 | 5686 | 5839 |
| CG14017 | 1 | 1.53 | 3.42 | 5897 | 6979 |
| raw | 1 | 3.21 | 4.15 | 4797 | 4632 |
| raw | 2 | 3.24 | 8.5 | 5564 | 5211 |
| CG15864 | 1 | 4.01 | 5.85 | 6512 | 6875 |
| CG15864 | 2 | 6.89 | 7.24 | 6461 | 6123 |
| CG10839 | 1 | 10.9 | 2.65 | 5644 | 6780 |

3 of these entries, set out differently.
{"gene": "CG11286", "reagent": 1, "infection score, replicate 1": 7.18, "infection score, replicate 2": 8.02, "cell count, replicate 1": 6542, "cell count, replicate 2": 6446}
{"gene": "CG12128 + CG1407", "reagent": 1, "infection score, replicate 1": 19.4, "infection score, replicate 2": 17.5, "cell count, replicate 1": 5867, "cell count, replicate 2": 6123}
{"gene": "mRpL49 (mitochondrial ribosomal protein L49)", "reagent": 1, "infection score, replicate 1": 5.95, "infection score, replicate 2": 8.82, "cell count, replicate 1": 2049, "cell count, replicate 2": 896}
